Where two headings read alike, the source gives them in different places. Residues, ends and D or L forms follow the SMILES beside them.
Assays:
[1] = tested on: E. coli K-12 MG1655; assay: Resistance development assay (serial passage), E. coli; conditions: serial passage at sub-MIC in CAMHB, 32 days
[2] = tested on: S. aureus ATCC 29213 and SO-SAU19-1

CC[C@H](C)[C@H](NC(=O)CNC(=O)[C@H](CCCCN)NC(=O)[C@@H](NC(=O)[C@H](CC(C)C)NC(=O)[C@H](Cc1c[nH]c2ccccc12)NC(=O)[C@H](CCCNC(=N)N)NC(=O)[C@H](CC(=O)O)NC(=O)[C@H](CCSC)NC(C)=O)C(C)C)C(=O)N[C@@H](CC(C)C)C(=O)N[C@@H](CCC(N)=O)C(=O)N[C@@H](Cc1c[nH]c2ccccc12)C(=O)N[C@@H](CCCNC(=N)N)C(=O)N[C@@H](CCCCN)C(=O)N[C@H](C(=O)N[C@@H](CCCNC(=N)N)C(=O)N[C@@H](CCCNC(=N)N)C(=O)N[C@@H](CCCNC(=N)N)C(=O)N[C@@H](CCCNC(=N)N)C(=O)N[C@@H](CCCNC(=N)N)C(=O)N[C@@H](CCCNC(=N)N)C(=O)N[C@@H](CCCNC(=N)N)C(=O)N[C@@H](CCCNC(=N)N)C(=O)N[C@@H](CCCNC(=N)N)C(=O)N[C@@H](CCCNC(=N)N)C(=O)N[C@@H](CCCNC(=N)N)C(N)=O)[C@@H](C)CC [betatide] (Ac-MDRWLVKGILQWRKIRRRRRRRRRRR-NH2)
increase in MIC relative to day 1 [1]: 2 ×
increase in MIC relative to day 1 ([2]; S. aureus ATCC 29213, serial passage, first experiment (parallel 1)): 8 ×
increase in MIC relative to day 1 ([2]; S. aureus SO-SAU19-1 (MRSA), 20 passages): did not show any signs of resistance development
